Results of unrelated studies side by side (data: NIAID ChemDB).

Common to all: tests in culture; organism: Aspergillus fumigatus; measure: MIC80

Blank or dashed fields: not listed here.

SMILES | strain | result
CCCCC(c1cn(Cc2ccc(Cl)cc2)c2ccccc12)n1ccnc1 | AF980003 | >100 µg/mL
COc1c2c(c3oc4c(O)cccc4c(=O)c3c1O)C=CC(C)(C)O2 |  | 8 µg/mL
CCCCN(Cc1cn(Cc2ccc(C)cc2)nn1)CC(O)(Cn1cncn1)c1ccc(F)cc1F |  | >64 µg/mL
CCCC(c1cn(Cc2ccc(Cl)cc2)c2ccc(Br)cc12)n1ccnc1 | AF980003 | >100 µg/mL
O=C1S/C(=C\c2ccccc2)C(=O)N1CC(O)(Cn1nccn1)c1ccc(F)cc1F |  | >100 µg/mL
CCCCC(c1cn(Cc2ccc(Cl)cc2)c2ccc(Br)cc12)n1ccnc1 | AF980003 | >100 µg/mL
CCCCN(Cc1cn(Cc2ccccc2C#N)nn1)CC(O)(Cn1cncn1)c1ccc(F)cc1F |  | >64 µg/mL
CCc1nn([C@H](C)[C@](O)(Cn2cncn2)c2ccc(F)cc2F)c2ccc(F)cc12 | ATCC 16424 | 16 µg/mL
CC(C)=CCc1c2c(c3oc4c(O)cccc4c(=O)c3c1O)C=CC(C)(C)O2 |  | 125 µg/mL
O=C1S/C(=C\c2ccccc2Br)C(=O)N1CC(O)(Cn1nccn1)c1ccc(F)cc1F |  | >100 µg/mL
CC1(C)C=Cc2c(cc(O)c3c(=O)c4cccc(O)c4oc23)O1 |  | 31 µg/mL
CC(C)=CCc1c(O)cc2oc3ccc4c(c3c(=O)c2c1O)C=CC(C)(C)O4 | CBS 113.26 | >250 µg/mL
Fc1cc(F)c(OCc2nc3c(OCCCNCc4cccnc4)cccc3o2)c(F)c1 |  | >64 µg/mL
Cc1nn([C@H](C)[C@](O)(Cn2cncn2)c2ccc(F)cc2F)c2cc(F)ccc12 | ATCC 16424 | 16 µg/mL
O=C1CSC(=O)N1CC(O)(Cn1nccn1)c1ccc(F)cc1F |  | >100 µg/mL
CCCCN(Cc1cn(Cc2ccc([N+](=O)[O-])cc2)nn1)CC(O)(Cn1cncn1)c1ccc(F)cc1F |  | >64 µg/mL
CN(CCCCCOc1ccccc1)CC(O)(Cn1cncn1)c1ccc(F)cc1F |  | 37.19 µM
Fc1ccc(Cn2cc(Cn3ccnc3)c3cc(Br)ccc32)cc1 | AF980003 | >100 µg/mL
CCCCN(Cc1cn(Cc2cccc(F)c2)nn1)CC(O)(Cn1cncn1)c1ccc(F)cc1F |  | >64 µg/mL
CCCC(CC(=O)O)C1=C(O)C(CC=C(C)C)(CC=C(C)C)C(=O)C2=C1O[C@H](C)[C@@H](C)C2=O | CBS 113.26 | 16 µg/mL
CCCC(c1cn(Cc2ccc(Cl)cc2)c2ccccc12)n1ccnc1 | AF980003 | >100 µg/mL
ClCCl |  | 16 µg/mL
CCCCN(Cc1cn(Cc2ccccc2[N+](=O)[O-])nn1)CC(O)(Cn1cncn1)c1ccc(F)cc1F |  | >64 µg/mL
CO |  | >250 µg/mL
CCCCN(Cc1cn(Cc2ccc(Cl)cc2Cl)nn1)CC(O)(Cn1cncn1)c1ccc(F)cc1F |  | >64 µg/mL
CC(C)(C)c1ccc(/C=C2\SC(=O)N(CC(O)(Cn3nccn3)c3ccc(F)cc3F)C2=O)cc1 |  | >100 µg/mL
COc1c(O)cc2oc3cc(O)cc(O)c3c(=O)c2c1OC | CBS 113.26 | 16 µg/mL
NN(Cc1ccccc1)CC(O)(Cn1cncn1)c1ccc(F)cc1F | ATCC 16424 | 2 µg/mL
Cc1c(C(C)n2ccnc2)c2ccccc2n1Cc1ccc(Br)cc1 | AF980003 | >100 µg/mL
CCCCN(Cc1cn(Cc2cccc([N+](=O)[O-])c2)nn1)CC(O)(Cn1cncn1)c1ccc(F)cc1F |  | >64 µg/mL
Cc1ccccc1/C=C1\SC(=O)N(CC(O)(Cn2nccn2)c2ccc(F)cc2F)C1=O |  | >100 µg/mL
COc1cc2c(=O)c3ccccc3oc2cc1O | CBS 113.26 | 16 µg/mL
Cc1c(Cn2ccnc2)c2ccccc2n1Cc1ccc(F)cc1 | AF980003 | >100 µg/mL
CN(CCCCOc1ccccc1)CC(O)(Cn1cncn1)c1ccc(F)cc1F |  | >154 µM
CCCCN(Cc1cn(Cc2cccc(Br)c2)nn1)CC(O)(Cn1cncn1)c1ccc(F)cc1F |  | >64 µg/mL
O=c1c2cccc(O)c2oc2cccc(O)c12 | CBS 113.26 | 16 µg/mL
OC(CN=C1CCN(CCCCCOc2ccccc2)CC1)(Cn1cncn1)c1ccc(F)cc1F |  | >129 µM

A second listing of 3 rows from above:

SMILES | strain | result
Fc1cc(F)c(OCc2nc3c(OCCCNCc4cccnc4)cccc3o2)c(F)c1 |  | >64 µg/mL
CCCCN(Cc1cn(Cc2cccc(F)c2)nn1)CC(O)(Cn1cncn1)c1ccc(F)cc1F |  | >64 µg/mL
CC(C)=CCc1c(O)cc2oc3ccc4c(c3c(=O)c2c1O)C=CC(C)(C)O4 | CBS 113.26 | >250 µg/mL

Neighbouring rows are from separate reports. MIC50, MIC90 and the like: level of inhibition, or share of isolates inhibited.